Pooled drug test results. Numbers come from NIAID ChemDB, via PubChem.

Common to all: growth or infection tests; organism: Herpes simplex virus 1; read-out: EC50

Neighbouring rows are from separate reports. Blank or dashed fields: not listed here. ECn: concentration that inhibits the pathogen or its effect by n%. Two numbers with a dash give a range or band.

smiles	cells	strain or isolate	result
Cc1cn([C@H]2O[C@@H](CO)C[C@H]2F)c(=O)nc1N	VERO		>100 µM
COc1cc(C2c3c(cc4c(c3OC)OCO4)C[C@H]3COC(=O)[C@H]23)cc(OC)c1OC	MRC-5	A4-3	0.135 µg/mL
O=c1c(O)c(-c2ccc(O)c(O)c2)oc2cc(O)cc(O)c12	VERO		<60 µg/mL
Nc1nc2c(ncn2CCC(CO)CO)c(=O)[nH]1			0.1–1 µM
Nc1ncnc2c1ncn2C[C@@H](CO)OCP(=O)(O)O	Primary rabbit kidney cells	TK-	0.7 µg/mL
CCCCC(=O)SCCOP(=O)(OCCOCn1cnc2c(=O)[nH]c(N)cc21)OCCSC(=O)CCCC			10 µM
Nc1nc(=O)n([C@H]2O[C@@H](CO)C[C@H]2F)cc1I	VERO		>100 µM
Nc1ncnc2c1ncn2CCOCP(=O)(O)O	Primary rabbit kidney cells	TK-	7 µg/mL
Nc1ncnc2c1ccn2[C@H]1C[C@H](O)[C@@H](COP(=O)(O)COC(=O)[C@@H](N)CC(=O)O)O1	HEL	KOS	>100 µM
Oc1cc(O)c2c(c1)O[C@H](c1ccc(O)c(O)c1)[C@H](O)C2	VERO		>200 µM
O=c1[nH]cnc2c1ncn2[C@@H]1O[C@@H](CO)C[C@@H]1F	VERO		>100 µM
Nc1ncnc2c1ccn2[C@@H]1O[C@H](CO)[C@@H](O)[C@@H]1O	BSC-1	S-148	220 µM
CO[C@@H]1[C@H](OP(O)(=S)OC[C@H]2O[C@@H](n3cnc4c(N)ncnc43)C[C@@H]2O)[C@@H](CO)O[C@H]1n1ccc(=O)[nH]c1=O		KOS	>20 µM
Nc1nc2c(ncn2COC(CO)CO)c(=O)[nH]1	VERO		<1 µM
O=c1[nH]cnc2c1ncn2[C@H]1O[C@@H](CO)C[C@H]1F	VERO		>100 µM
Nc1ccn([C@@H]2C[C@@H](O)[C@H](CO)O2)c(=O)n1	HFF		>20 µM
O=c1c(O)c(-c2ccc(O)cc2)oc2cc(O)cc(O)c12	VERO		2 µg/mL
Nc1nc2c(ncn2C[C@]2(CO)C[C@H]2CO)c(=O)[nH]1			0.01–0.1 µM
O=c1[nH]c(=O)n(C2OC(CO)CC2F)cc1I	VERO		>100 µM
Nc1ncnc2c1ccn2[C@H]1C[C@H](O)[C@@H](CO)O1	HEL	KOS	100 µM
O=c1[nH]c(=O)n([C@@H]2O[C@@H](CO)C[C@H]2F)cc1F	VERO		>100 µM
Nc1ncnc2c1ncn2C[C@H]1COP(=O)(O)CO1	Primary rabbit kidney cells	TK-	2 µg/mL
OC[C@H]1O[C@@H](n2cnc3c(Cl)nccc32)C[C@@H]1O	HEL	KOS	>100 µM
COc1cc([C@@H]2c3cc4c(cc3[C@H](O)[C@H]3COC(=O)[C@H]23)OCO4)cc(OC)c1OC	MRC-5	KOS	0.011 µg/mL
CCCCCCCCCCCCCCCCCCCCCCSC[C@H](O)COP(=O)(O)C(=O)O	MRC-5		15 µM
Nc1nccc2c1ncn2[C@H]1C[C@H](O)[C@@H](CO)O1	HEL	KOS	>100 µM
Nc1nc(N)c2ncn(CC(CO)OCP(=O)(O)O)c2n1	Primary rabbit kidney cells		10 µg/mL
CCCCCCCCCCCCCCCCOC[C@@H](O)COP(=O)(O)C(=O)O	MRC-5		2.9 µM
Nc1nc2c(ncn2C=C2CC2CO)c(=O)[nH]1		OST (TK-)	13 µg/mL
Nc1ccnc2c1ncn2[C@H]1C[C@H](O)[C@@H](COP(=O)(O)COC(=O)[C@@H](N)CC(=O)O)O1	HEL	KOS	>100 µM
O=c1[nH]cnc2c1ncn2CCOCP(=O)(O)O	Primary rabbit kidney cells	TK-	>400 µg/mL
CCCCCCCCCCCCCCCCCCOC[C@H](COP(=O)(O)C(=O)O)OCc1ccccc1	MRC-5	WILD TYPE	14.8 µM
CCCCCCCCCCCCSC[C@H](O)COP(=O)(O)C(=O)O	MRC-5		41 µM
Nc1ncnc2c1ncn2CCOCP(=O)(O)O	VERO		8 µM
Nc1nc2c(ncn2[C@@H]2C=C[C@H](CO)CC2)c(=O)[nH]1		OST (TK-)	3.2 µg/mL
C=C1[C@H](CO)[C@@H](O)C[C@@H]1n1cnc2c(=O)[nH]c(N)nc21	HFF	Schooler	32 µM
CC(C)(C)C(=O)OCOC(=O)CN(CC(=O)OCOC(=O)C(C)(C)C)P(=O)(OC[C@H]1O[C@@H](n2cnc3c(Cl)nccc32)C[C@@H]1O)Oc1ccccc1	HEL	KOS	>20 µM
C[C@H](Cc1ccc(O)c(O)c1)[C@@H](C)Cc1ccc(O)c(O)c1		1	4.12 µg/mL
Nc1nc2c(ncn2CC(CO)OCP(=O)(O)O)c(=O)[nH]1	Primary rabbit kidney cells		7 µg/mL
O=C(O)P(=O)(O)O	MRC-5		41.2 µM
COc1cc([C@@H]2c3cc(O)c(O)cc3C[C@H]3COC(=O)[C@@H]32)cc(OC)c1OC	MRC-5	KOS	0.248 µg/mL
O=c1[nH]c(=O)n([C@H]2O[C@@H](CO)C[C@H]2F)cc1Cl	VERO		>51 µM
C[C@H](Cn1cnc2c(NC3CC3)ncnc21)OCP(=O)(O)O			0.2 µg/mL
Nc1ccn([C@@H]2C[C@@H](O)[C@H](CO)O2)c(=O)n1	HFF		>20 µM
Nc1ccnc2c1ncn2C1CC(O)C(CO)O1	HEL	KOS	>100 µM

Again, the opening 3 rows:

{"smiles": "Cc1cn([C@H]2O[C@@H](CO)C[C@H]2F)c(=O)nc1N", "cells": "VERO", "result": ">100 µM"}
{"smiles": "COc1cc(C2c3c(cc4c(c3OC)OCO4)C[C@H]3COC(=O)[C@H]23)cc(OC)c1OC", "cells": "MRC-5", "strain or isolate": "A4-3", "result": "0.135 µg/mL"}
{"smiles": "O=c1c(O)c(-c2ccc(O)c(O)c2)oc2cc(O)cc(O)c12", "cells": "VERO", "result": "<60 µg/mL"}